Source: US5270344A, “Method of treating a systemic disorder using trioxolane and diperoxide compounds” (priority 1992, dated 1993)

Experiments:
S. aureus [1] = experiment: MIC by agar diffusion method; type: cell-based, Staphylococcus aureus
Salmonella [2] = experiment: MIC, broth; type: cell-based, Salmonella spp.; conditions: N=3
Pseudomonas [3] = experiment: MIC by agar diffusion method; type: cell-based, Pseudomonas spp.; conditions: N=2
Pseudomonas [4] = experiment: MBC by broth method; type: cell-based, Pseudomonas spp.; conditions: N=2
N. gonorrhoea = experiment: MIC by agar diffusion method; type: cell-based, Neisseria gonorrhoea
Candida [5] = experiment: MIC, broth; type: cell-based, Candida spp.; conditions: N=2
S. aureus [6] = experiment: MIC, broth; type: cell-based, Staphylococcus aureus; conditions: N=10
Cryptococcus = experiment: MIC by agar diffusion method; type: cell-based, Cryptoccus spp.; conditions: N=1
Pseudomonas [7] = experiment: MIC by agar dilution (agar); type: cell-based, Pseudomonas spp.; conditions: N=2
EPEC/ETEC [8] = experiment: MIC, broth; type: cell-based, enteropathogenic/enterotoxigenic Escherichia coli; conditions: N=5
Shigella [9] = experiment: MBC by broth method; type: cell-based, Shigella spp.; conditions: N=7
Shigella [10] = experiment: MIC by agar diffusion method; type: cell-based, Shigella spp.; conditions: N=7
[11] = tested on: commonly encountered microorganisms; experiment: Antimicrobial activity in vitro, overall comparison; type: cell-based, bacteria and fungi
Penicillium = experiment: MIC by agar diffusion method; type: cell-based, Penicillium spp.; conditions: N=1
S. aureus [12] = experiment: MIC by agar dilution (agar); type: cell-based, Staphylococcus aureus; conditions: N=10
Salmonella [13] = experiment: MIC by agar diffusion method; type: cell-based, Salmonella spp.; conditions: N=3
Salmonella [14] = experiment: MIC by agar dilution (agar); type: cell-based, Salmonella spp.; conditions: N=3
Candida [15] = experiment: MBC by broth method; type: cell-based, Candida spp.; conditions: N=2
Pseudomonas [16] = experiment: MIC, broth; type: cell-based, Pseudomonas spp.; conditions: N=2
EPEC/ETEC [17] = experiment: MIC by agar dilution (agar); type: cell-based, enteropathogenic/enterotoxigenic Escherichia coli; conditions: N=5
EPEC/ETEC [18] = experiment: MBC by broth method; type: cell-based, enteropathogenic/enterotoxigenic Escherichia coli; conditions: N=5
Leishmania donova = experiment: Treatment of mice infected with Leishmania donova; type: in vivo, Balb/c mice; conditions: 20 mg/kg IP daily for 5 days; preliminary
Shigella [19] = experiment: MIC, broth; type: cell-based, Shigella spp.; conditions: N=7
Tri. canis = experiment: MIC by agar diffusion method; type: cell-based, Trichophyton canis; conditions: N=1
Salmonella [20] = experiment: MBC by broth method; type: cell-based, Salmonella spp.; conditions: N=3
Leishmania major = experiment: Treatment of mice infected with Leishmania major; type: in vivo, balb/c mice; conditions: n = 15/group
Shigella [21] = experiment: MIC by agar dilution (agar); type: cell-based, Shigella spp.; conditions: N=7
Candida [22] = experiment: MIC by agar dilution (agar); type: cell-based, Candida spp.; conditions: N=2
S. aureus [23] = experiment: MBC by broth method; type: cell-based, Staphylococcus aureus
[24] = Three-month trial in ARC and lymphoma patients; type: in vivo, human; conditions: three ARC patients and one lymphoma patient
C. albicans = experiment: MIC by agar diffusion method; type: cell-based, Candida albicans; conditions: N=5
Tri. violaceum = experiment: MIC by agar diffusion method; type: cell-based, Trichophyton violaceum; conditions: N=1
S. epidermidis = experiment: MIC by agar diffusion method; type: cell-based, Staphylococcus epidermidis
Ph. verrucose = experiment: MIC by agar diffusion method; type: cell-based, Phialophora verrucose; conditions: N=1
Kiebisella = experiment: MIC by agar diffusion method; type: cell-based, Klebsiella spp.; conditions: Klebsiella, N=1
Archromobacter = experiment: MIC by agar diffusion method; type: cell-based; conditions: Achromobacter, N=1
E. coli [25] = experiment: MIC by agar diffusion method; type: cell-based; conditions: N=3
EPEC/ETEC [26] = experiment: MIC by agar diffusion method; type: cell-based, enteropathogenic/enterotoxigenic Escherichia coli
E. coli [27] = experiment: In vitro anti-microbial assay of linalool trioxolane; conditions: ointment with 1.0% derivative; inoculum approx. 1×10^6 CFUs/1 ml; 7 days and all subsequent sample selections to 28 days; 20°-25° C.

Q: For Geraniol trioxolane, which MIC (S. aureus [1]; N=16) is on record?
A: 310 µg/mL

Q: What about the “lowest concentration inhibiting at least one isolate” value (“lowest concentration inhibiting” below) (S. aureus [1]; in parentheses) of the same substance?
A: 0.004 mg/mL

Q: What about the MIC broth (Salmonella [2]) of the same substance?
A: 3120 µg/mL

Q: And the MIC (Pseudomonas [3])?
A: 35 µg/mL

Q: And the MBC (Pseudomonas [4])?
A: 3120 µg/mL

Q: And the MIC (N. gonorrhoea; N=49)?
A: 150 µg/mL

Q: What about the “lowest concentration inhibiting” value (N. gonorrhoea; in parentheses) of the same substance?
A: 0.008 mg/mL

Q: What about the MIC broth (Candida [5]) of the same substance?
A: 3120 µg/mL

Q: What about the MIC broth (S. aureus [6]) of the same substance?
A: 780 µg/mL

Q: And the MIC (Cryptococcus)?
A: 150 µg/mL

Q: What about the MIC agar (Pseudomonas [7]) of the same substance?
A: 35 µg/mL

Q: What about the MIC broth (EPEC/ETEC [8]) of the same substance?
A: 560 µg/mL

Q: What about the MBC (Shigella [9]) of the same substance?
A: 3120 µg/mL

Q: What about the MIC (Shigella [10]) of the same substance?
A: 310 µg/mL

Q: What about the “Activity compared with conventional drugs” value ([11]; in vitro, Tables 4-6) of the same substance?
A: more active than conventional drugs

Q: What about the “Effect of water on direct bioactivity” value ([11]; water as diluent) of the same substance?
A: significantly reduces the direct bioactivity

Q: What about the MIC (Penicillium) of the same substance?
A: 620 µg/mL

Q: And the MIC agar (S. aureus [12])?
A: 150 µg/mL

Q: What about the MIC (Salmonella [13]) of the same substance?
A: 310 µg/mL

Q: And the MIC agar (Salmonella [14])?
A: 310 µg/mL

Q: What about the MBC (Candida [15]) of the same substance?
A: 3120 µg/mL

Q: And the MIC broth (Pseudomonas [16])?
A: 1560 µg/mL

Q: What about the MIC agar (EPEC/ETEC [17]) of the same substance?
A: 620 µg/mL

Q: What about the MBC (EPEC/ETEC [18]) of the same substance?
A: 3120 µg/mL

Q: And the “Clearing parasites from the viscera” value (Leishmania donova)?
A: perform better than Pentostam

Q: What about the MIC broth (Shigella [19]) of the same substance?
A: 1560 µg/mL

Q: What about the MIC (Tri. canis) of the same substance?
A: 310 µg/mL

Q: And the MBC (Salmonella [20])?
A: 6250 µg/mL

Q: What about the “Dead, Day 14” value (Leishmania major; IP) of the same substance?
A: 4 dead

Q: And the “Lesions, Day 0” value (Leishmania major; IP)?
A: Large lesions

Q: And the “Lesions, Day 14” value (Leishmania major; IP)?
A: Lesions breaking

Q: And the “Death, Day 14” value (Leishmania major; topical ointment 4 mg/ml)?
A: No death

Q: And the “General health, Day 14” value (Leishmania major; topical ointment 4 mg/ml)?
A: Healthy

Q: And the “Lesions, Day 0” value (Leishmania major; topical ointment 4 mg/ml)?
A: Large lesions

Q: And the “Lesions, Day 14” value (Leishmania major; topical ointment 4 mg/ml)?
A: Dry lesions

Q: What about the “Palate involvement, Day 14” value (Leishmania major; topical ointment 4 mg/ml) of the same substance?
A: No palate involvement

Q: And the MIC agar (Shigella [21])?
A: 310 µg/mL

Q: And the MIC agar (Candida [22])?
A: 620 µg/mL

Q: And the MBC (S. aureus [23]; N=10)?
A: 3120 µg/mL

Q: And the “lowest concentration for corresponding organism” value (S. aureus [23]; in parentheses)?
A: 0.78 mg/mL

Q: What about the “Remission after initial treatment” value [24] of the same substance?
A: resulted in remission

Q: What about the MIC (C. albicans) of the same substance?
A: 620 µg/mL

Q: What about the MIC (Tri. violaceum) of the same substance?
A: 310 µg/mL

Q: What about the MIC (S. epidermidis; N=14) of the same substance?
A: 310 µg/mL

Q: And the “lowest concentration inhibiting” value (S. epidermidis; in parentheses)?
A: 0.004 mg/mL

Q: What about the MIC (Ph. verrucose) of the same substance?
A: 310 µg/mL

Q: What about the MIC (Kiebisella) of the same substance?
A: 17 µg/mL

Q: And the MIC (Archromobacter)?
A: 620 µg/mL

Q: And the MIC (E. coli [25])?
A: 310 µg/mL

Q: And the MIC (EPEC/ETEC [26]; N=16)?
A: 520 µg/mL

Q: And the “lowest concentration inhibiting” value (EPEC/ETEC [26]; in parentheses)?
A: 0.31 mg/mL

Q: With linalool trioxolane as the substance, how does the CFUs present (E. coli [27]) read?
A: less than 10 CFUs
